Legend:
Assay type in all cases: cell-based, human rhinovirus
HRV-14 = assay: Antirhinoviral H1-HeLa cell culture assay (XTT), HRV-14; details: therapeutic index CC50/EC50, HRV serotype-14
Experimental: (§1) Antirhinoviral H1-HeLa Cell Culture Assay
(§2) In this cell protection assay, the ability of compounds to protect cells against HRV infection was measured by the XTT dye reduction method, which is described in Weislow et al., J. Natl. Cancer Inst. 1989, vol. 81, 577-586.
(§3) H1-HeLa cells were infected with HRV-14 at a multiplicity of infection (m.o.i.) of 0.13 (virus particles/cell) or mock-infected with medium only. Infected or mock-infected cells were resuspended at 8×10^5 cells per mL, and incubated with appropriate concentrations of the compounds to be tested. Two days later, XTT/PMS was added to test plates and the amount of formazan produced was quantified spectrophotometrically at 450/650 nm. The EC50 value was calculated as the concentration of compound that increased the percentage of formazan production in compound-treated, virus-infected cells to 50% of that produced by compound-free, mock-infected cells. The 50% cytotoxic dose (CC50) was calculated as the concentration of compound that decreased the percentage of formazan produced in compound-treated, mock-infected cells to 50% of that produced by compound-free, mock-infected cells. The therapeutic index (TI) was calculated by dividing the CC50 value by the EC50 value.
(§4) All strains of human rhinovirus (HRV) for use in this assay were purchased from American Type Culture Collection (ATCC), except for HRV serotype-14 (produced from the infectious cDNA clone constructed by Dr. Robert Rueckert, Institute for Molecular Virology, University of Wisconsin, Madison, Wis.). HRV stocks were propagated and viral assays were performed in H1-HeLa cells (ATCC). Cells were grown in minimal essential medium with 10% fetal bovine serum, available from Life Technologies (Gaithersburg, Md.).
(§5) The compounds were tested against control compounds WIN 51711, WIN 52084, and WIN 54954 (obtained from Sterling-Winthrop Pharmaceuticals), Pirodavir (obtained from Janssen Pharmaceuticals), and Pleconaril (prepared according to the method described in Diana et al., J. Med. Chem 1995, vol. 38, 1355). Antiviral data obtained for the test compounds are shown in Tables 1 and 3, where all data are for HRV serotype-14 unless otherwise noted in parentheses.

HRV serotype 10 = assay: Antirhinoviral H1-HeLa cell culture assay (XTT), HRV-10; details: therapeutic index CC50/EC50, HRV (10)
Experimental: as §1, §2, §3, §4, §5

HRV serotype 1A = assay: Antirhinoviral H1-HeLa cell culture assay (XTT), HRV-1A; details: therapeutic index CC50/EC50, HRV (1A)
Experimental: as §1, §2, §3, §4, §5

HRV serotype 89 = assay: Antirhinoviral H1-HeLa cell culture assay (XTT), HRV-89; details: therapeutic index CC50/EC50, HRV (89)
Experimental: as §1, §2, §3, §4, §5

HRV serotype 16 = assay: Antirhinoviral H1-HeLa cell culture assay (XTT), HRV-16; details: therapeutic index CC50/EC50, HRV (16)
Experimental: as §1, §2, §3, §4, §5

HRV serotype 2 = assay: Antirhinoviral H1-HeLa cell culture assay (XTT), HRV-2; details: therapeutic index CC50/EC50, HRV (2)
Experimental: as §1, §2, §3, §4, §5

HRV serotype 39 = assay: Antirhinoviral H1-HeLa cell culture assay (XTT), HRV-39; details: therapeutic index CC50/EC50, HRV (39)
Experimental: as §1, §2, §3, §4, §5

Compound: CCOC(=O)/C=C/[C@H](C[C@@H]1CCCNC1=O)NC(=O)[C@@H](CC(=O)[C@@H](NC(=O)c1cc(C)on1)C(C)C)Cc1ccc(F)cc1 [(B-4), Ethyl-3-{(5′-Methylisoxazole-3′-carbonyl)-L-ValΨ(COCH2)-L-(4-F-Phe)-L-((S)-Piper-Ala)}-E-Propenoate]
- TI (HRV-14): >3333

Compound: CCOC(=O)/C=C/[C@H](CCC(N)=O)NC(=O)[C@H](Cc1ccccc1)NC(=O)[C@H](CC(C)C)NC(=O)c1ccno1 [(A-2), Ethyl-3-((Isoxazole-5′-carbonyl)-L-Leu-L-Phe-L-Gin)-E-Propenoate]
- TI (HRV-14): >63

Compound: CCOC(=O)/C=C/[C@H](CCC(N)=O)NC(=O)[C@H](Cc1ccc(C)cc1)NC(=O)[C@@H](NC(=O)C1SCCS1)C(C)(C)C [(A-15)]
- TI (HRV-14): >454
- TI (HRV serotype 10): >37
- TI (HRV serotype 1A): >14

Compound: Cc1cc(C(=O)N[C@H](C(=O)C[C@@H](Cc2ccc(F)cc2)C(=O)N[C@H](/C=C2\CCOC2=O)C[C@@H]2CCNC2=O)C(C)C)no1 [(B-3), 2-{(5′-Methylisoxazole-3′-carbonyl)-L-ValΨ(COCH2)-L-(4-F-Phe)-L-((S)-Pyrrol-Ala)}-E-(α-Vinyl-γ-Butyrolactone)]
- TI (HRV-14): >543

Compound: CCOC(=O)/C=C/[C@H](CCC(N)=O)NC(=O)[C@H](Cc1ccccc1)NC(=O)[C@H](CC(C)C)NC(=O)OCc1ccccc1 [Comparison Compound #2, Ethyl-3-(Cbz-L-Leu-L-Phe-L-Gln)-E-Propenoate]
- TI (HRV-14): >524
- TI (HRV serotype 89): >50
- TI (HRV serotype 10): >533
- TI (HRV serotype 16): >139

Compound: CCOC(=O)/C=C/[C@H](CCC(N)=O)NC(=O)[C@H](Cc1ccc(F)cc1)N(C)C(=O)[C@H](Cc1cccc2ccccc12)NC(=O)c1cc(C)on1 [(A-13), Ethyl-3-{(5′-Methylisoxazole-3′-carbonyl)-L-(1-Naphth)-NCH3-L-(4-F-Phe)-L-Gln}-E-Propenoate]
- TI (HRV-14): >50

Compound: CCOC(=O)/C=C/[C@H](CCC(N)=O)NC(=O)[C@H](Cc1ccccc1)NC(=O)[C@H](CC(C)C)NC(=O)c1cc(C)oc1C [(A-20)]
- TI (HRV-14): >8

Compound: Cc1cc(CCCCCOc2c(Cl)cc(C3=NCCO3)cc2Cl)on1 [WIN 54954, reference compound]
- TI (HRV-14): >30

Compound: CCOC(=O)/C=C/[C@H](CCC(N)=O)NC(=O)[C@H](Cc1ccccc1)NC(=O)[C@H](CC(C)C)NC(=O)[C@@H]1C=CCN1 [(A-19)]
- TI (HRV-14): >4

Compound: CCOC(=O)/C=C/[C@H](C[C@H]1CCNC1=O)NC(=O)[C@H](Cc1ccccc1)NC(=O)[C@H](CC(C)C)NC(=O)OCc1ccccc1 [(A-27), Ethyl-3-{Cbz-L-Leu-L-Phe-L-((R)-Pyrrol-Ala)}-E-Propenoate]
- TI (HRV-14): >62

Compound: CCOC(=O)/C=C/[C@H](C[C@@H]1CCNC1=O)NC(=O)[C@H](Cc1ccccc1)NC(=O)[C@@H](NC(=O)OCc1ccccc1)C(C)C [(A-25), Ethyl-3-{Cbz-L-Val-L-Phe-L-((S)-Pyrrol-Ala)}-E-Propenoate]
- TI (HRV-14): >3333

Compound: CCOC(=O)/C=C/[C@H](CCC(N)=O)NC(=O)[C@H](Cc1ccccc1)NC(=O)[C@H](CC(C)C)NC(=O)c1nc(C)c[nH]1 [(A-21)]
- TI (HRV-14): >40

Compound: CCOC(=O)/C=C/[C@H](CCC(N)=O)NC(=O)[C@H](Cc1ccc(F)cc1)NC(=O)[C@@H](NC(=O)c1cc(C)on1)C(C)(C)C [(A-4), Ethyl-3-((5′-Methylisoxazole-3′-carbonyl)-L-α-(t-Butyl-Gly)-L-(4-F-Phe)-L-Gln)-E-Propenoate]
- TI (HRV-14): >1000

Compound: CCOC(=O)/C=C/[C@H](CCC(N)=O)NC(=O)[C@H](Cc1ccc(F)cc1)N(C)C(=O)[C@H](CC(C)C)NC(=O)c1cc(C)on1 [(A-12), Ethyl-3-{(5′-Methylisoxazole-3′-carbonyl)-L-Leu-NCH3-L-(4-F-Phe)-L-Gln}-E-Propenoate]
- TI (HRV-14): >250

Compound: CCOC(=O)/C=C/[C@H](CCC(N)=O)NC(=O)[C@H](Cc1ccc(C)cc1)NC(=O)[C@@H](NC(=O)c1ccc[nH]1)C(C)(C)C [(A-16)]
- TI (HRV-14): >222
- TI (HRV serotype 10): >22
- TI (HRV serotype 1A): >21

Compound: CCOC(=O)/C=C/[C@H](CCC(N)=O)NC(=O)[C@H](Cc1ccccc1)NC(=O)[C@H](CC(C)C)NC(=O)c1cc(C)on1 [(A-1), Ethyl-3-((5′-Methylisoxazole-3′-carbonyl)-L-Leu-L-Phe-L-Gln)-E-Propenoate]
- TI (HRV serotype 2): >243
- TI (HRV-14): >400
- TI (HRV serotype 39): >450
- TI (HRV serotype 1A): >100

Compound: Cc1cc(CCCCCCCOc2ccc(C3=NCCO3)cc2)on1 [WIN 51711, reference compound]
- TI (HRV-14): >77

Compound: CCOC(=O)/C=C/[C@H](CCC(N)=O)NC(=O)[C@H](Cc1ccc(F)cc1)N(C)C(=O)[C@H](Cc1ccc2ccccc2c1)NC(=O)c1cc(C)on1 [(A-11), Ethyl-3-{(5′-Methylisoxazole-3′-carbonyl)-L-(2-Naphth)-NCH3-L-(4-F-Phe)-L-Gln}-E-Propenoate]
- TI (HRV-14): 1667

Compound: Cc1cc(CCCCCCCOc2ccc(C3=N[C@@H](C)CO3)cc2)on1 [WIN 52084, reference compound]
- TI (HRV-14): >143

Compound: CCOC(=O)/C=C/[C@H](C[C@@H]1CCNC1=O)NC(=O)[C@H](Cc1ccccc1)NC(=O)[C@H](CC(C)C)NC(=O)OCc1ccccc1 [(A-24), Ethyl-3-{Cbz-L-Leu-L-Phe-L-((S)-Pyrrol-Ala)}-E-Propenoate]
- TI (HRV-14): >1000

Compound: CC(C)[C@H](NC(=O)C1SCCS1)C(=O)N[C@@H](Cc1ccc(F)cc1)C(=O)N[C@H](/C=C/C(=O)OCc1cccnc1)CCC(N)=O [(A-18)]
- TI (HRV-14): >67

Compound: CCOC(=O)/C=C/[C@H](CCC(N)=O)NC(=O)[C@H](Cc1ccc(F)cc1)N(C)C(=O)[C@H](Cc1c[nH]cn1)NC(=O)c1cc(C)on1 [(A-9), Ethyl-3-{(5′-Methylisoxazole-3′-carbonyl)-L-His-NCH3-L-(4-F-Phe)-L-Gln}-E-Propenoate]
- TI (HRV-14): >55

Compound: CCOC(=O)/C=C/[C@H](C[C@@H]1CCCNC1=O)NC(=O)[C@H](Cc1ccccc1)NC(=O)[C@H](CC(C)C)NC(=O)OCc1ccccc1 [(A-26), Ethyl-3-{Cbz-L-Leu-L-Phe-L-((S)-Piper-Ala)}-E-Propenoate]
- TI (HRV-14): >3333

Compound: CCOC(=O)/C=C/[C@H](CCC(N)=O)NC(=O)[C@H](Cc1ccc(C)cc1)NC(=O)[C@@H](NC(=O)c1cc(C)on1)C(C)(C)C [(A-3), Ethyl-3-((5′-Methylisoxazole-3′-carbonyl)-L-α-(t-Butyl-Gly)-L-(4-Me-Phe)-L-Gln)-E-Propenoate]
- TI (HRV-14): >200

Compound: CCOC(=O)/C=C/[C@H](CCC(N)=O)NC(=O)[C@H](Cc1ccccc1)NC(=O)[C@@H](NC(=O)c1cccs1)C(C)(C)C [(A-14)]
- TI (HRV-14): >208

Compound: CCOC(=O)/C=C/[C@H](CCC(N)=O)NC(=O)[C@H](Cc1ccc(F)cc1)OC(=O)[C@@H](NC(=O)c1cc(C)on1)C(C)C [(C-1), Ethyl-3-{(5′-Methylisoxazole-3′-carbonyl)-L-Val-O-L-(4-F-Phe)-L-Gln}-E-Propenoate]
- TI (HRV-14): >100
